Assay results from the supplement of paper PMC9931576.
Human monoclonal antibodies against the spike receptor-binding domain (heavy:light variable regions). IC50 against pseudoviruses bearing the spike of naturally observed variants; lower = stronger; >10 µg/ml means not reached at the top dose. No active / inactive call. The stated detection limit is 0.0005 µg/ml; values near or below 0.001 µg/ml lie at the floor of the assay.

Columns and labels:
Assay in all cases: pseudovirus neutralization IC50; higher = weaker neutralization
[1] = molecular target: SARS-CoV-2 Omicron BA.1 spike pseudovirus
Procedure: (§1)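 Single-round VSV luciferase pseudovirus mixed with antibody dilutions for 1 h and put on Huh-7 cells for about a day; IC50 from the dose curve.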

[2] = molecular target: SARS-CoV-2 Omicron BA.2 spike pseudovirus
Procedure: as §1

[3] = molecular target: SARS-CoV-2 Omicron BA.2.75 spike pseudovirus
Procedure: as §1

[4] = molecular target: SARS-CoV-2 Omicron BA.5 spike pseudovirus
Procedure: as §1

[5] = molecular target: SARS-CoV-2 Omicron BQ.1.1 spike pseudovirus
Procedure: as §1

[6] = molecular target: SARS-CoV-2 Omicron XBB spike pseudovirus
Procedure: as §1

[7] = molecular target: SARS-CoV-2 early D614G spike pseudovirus
Procedure: as §1

B1: BD55-6509 (protein)
chain 1: EVQLVQSGAEVKKPGESLKISCKASGYIFSTDWIGWVRQMPGKGLEWMGIIWPDDSDTIYSPSFQGQVTFSADKSISTAYLQLNSLKASDSALYYCARRIGATYYFDYWGQGTRVTVSS
chain 2: QSALTQPASVSGSPGQSITISCTGTSSDVGGYNYVSWYQQHPGRAPKLVIYDVSNRPSGVSPRFSASKSGNTASLTISGLQADDEADYFCTSYTSSTTLWVFGGGTKLTVL
pseudovirus neutralization IC50 [1]: > 10 µg/mL | pseudovirus neutralization IC50 [2]: > 10 µg/mL | pseudovirus neutralization IC50 [3]: > 10 µg/mL | pseudovirus neutralization IC50 [4]: > 10 µg/mL | pseudovirus neutralization IC50 [5]: > 10 µg/mL | pseudovirus neutralization IC50 [6]: > 10 µg/mL | pseudovirus neutralization IC50 [7]: > 10 µg/mL

B2: BD55-6512 (protein)
chain 1: EVQLVESGGGLVQPGRSLRLSCTASGFTFGDYTLSWFRQAPGKGLEWVGFIRSKTHGGTTEYAASMMGRFTISRDDSKSIAYLEMNSLKTEDTAIYYCTREGILNYYYYYAMDVWGQGTTVTVSS
chain 2: DIQMTQSPSSLSASVADRVTITCRASQSISYYLNWYQQKPGKAPKLLIYAASSLQSGVPSRFSGSGSGTDFTLTISNLQPADFATYFCQQSYSIPLTFGGGTKVEIK
pseudovirus neutralization IC50 [1]: > 10 µg/mL | pseudovirus neutralization IC50 [2]: > 10 µg/mL | pseudovirus neutralization IC50 [3]: > 10 µg/mL | pseudovirus neutralization IC50 [4]: > 10 µg/mL | pseudovirus neutralization IC50 [5]: > 10 µg/mL | pseudovirus neutralization IC50 [6]: > 10 µg/mL | pseudovirus neutralization IC50 [7]: > 10 µg/mL

B3: BD55-6517 (protein)
chain 1: EVQLVESGGGLVQPGGSLRLSCAASGFTFSSSWMNWVRQAPGKGLEWVANINQDGSERNYVASVRGRFNIYSDHAKNSLFLQMDSLRADDTAVYYCARGDTNKWYTEYFRHWGQGTLVTVSS
chain 2: SDELTQPSSVSVSPGQTARITCSGNALSRQHGYWYQHKPGQAPVLVIYKDTERPSGIPERFSGSTSGTTATLIITGVQAEDEADYYCQSADSSSTNYVFGTGTKVTVL
pseudovirus neutralization IC50 [1]: > 10 µg/mL | pseudovirus neutralization IC50 [2]: > 10 µg/mL | pseudovirus neutralization IC50 [3]: > 10 µg/mL | pseudovirus neutralization IC50 [4]: > 10 µg/mL | pseudovirus neutralization IC50 [5]: > 10 µg/mL | pseudovirus neutralization IC50 [6]: > 10 µg/mL | pseudovirus neutralization IC50 [7]: > 10 µg/mL

B4: BD55-6527 (protein)
chain 1: EVQLVESGGGLIQPGGSLTLSCAASGFTVSRNLMGWVRQAPGKGLEWLSVIYSGGTTYFADSVTGRFTISRDNSRNTLSLQMNSLRAEDTAVYYCVGEQGSGRWRGTLFDSWGQGTLVTVSP
chain 2: QSVLTQPPSVSGAPGQRVTISCTGSSSNIGAGYDVHWYQQVPGTAPKLLMYGNSNRPSGVPDRFSGSKSGTSASLTITGLQAEDEADYYCQSYDSSLSVLYVFGSGTRVTVL
pseudovirus neutralization IC50 [1]: 0.45 µg/mL | pseudovirus neutralization IC50 [2]: > 10 µg/mL | pseudovirus neutralization IC50 [3]: > 10 µg/mL | pseudovirus neutralization IC50 [4]: > 10 µg/mL | pseudovirus neutralization IC50 [5]: > 10 µg/mL | pseudovirus neutralization IC50 [6]: > 10 µg/mL | pseudovirus neutralization IC50 [7]: 1.74 µg/mL

B5: BD55-6529 (protein)
chain 1: VQLVQSGAEVKKPGASVKVSCRASGYTFDTFDINWVRQATGQGPEWMGWMNPKSGDTGFAPNFQGRVTMTRDSSINTAYMELSSLRSGDTAVYYCAIGLFYDGGGFNRYHYYTMDVWGQGTTVTVSS
chain 2: IHMTQSPSSLSASVGGRITITCRASQSISTSLNWYQQQPGKPPKLLIFGSSTLATGVPPRFSGSGSGTDFTLTIISLQPEDFATYYCQQSYSFPGTFGPGTKVDI
pseudovirus neutralization IC50 [1]: > 10 µg/mL | pseudovirus neutralization IC50 [2]: > 10 µg/mL | pseudovirus neutralization IC50 [3]: > 10 µg/mL | pseudovirus neutralization IC50 [4]: > 10 µg/mL | pseudovirus neutralization IC50 [5]: > 10 µg/mL | pseudovirus neutralization IC50 [6]: > 10 µg/mL | pseudovirus neutralization IC50 [7]: 8.87 µg/mL

B6: BD55-6538 (protein)
chain 1: QVQLVQSGAEVKKPGASVKVSCQASGNTFTSYDINWVRQATGQGPEWMGWVNSNSGNTDYAHKFRGRVTMTRDTSIKTVFLELSSLKSEDTAVYYCATARAGYNYGDFENWGQGTLVTVSS
chain 2: DIQMTQSPSSLSASVGDRVTFTCRAGQSITWHLNWYQQKPGKAPKLLIYAASSLQSGVPSRFSGSGSGTDFTLTISNLQPEDFATYYCQQSYSTGYTFGQGTKLEIK
pseudovirus neutralization IC50 [1]: > 10 µg/mL | pseudovirus neutralization IC50 [2]: > 10 µg/mL | pseudovirus neutralization IC50 [3]: > 10 µg/mL | pseudovirus neutralization IC50 [4]: > 10 µg/mL | pseudovirus neutralization IC50 [5]: > 10 µg/mL | pseudovirus neutralization IC50 [6]: > 10 µg/mL | pseudovirus neutralization IC50 [7]: > 10 µg/mL
